Compound potency records, mixed from different reports. Data source: NIAID ChemDB in PubChem.

All rows: tests in culture; organism: Candida albicans; measure: zone

Lines come from different laboratories, so protocols vary. Zone: diameter of growth inhibition.

{"compound": "NNc1nnc2c(n1)Nc1ccccc1C2", "strain or isolate": "ATCC 2091", "dose": "1000 µg/mL", "value": "23 mm"}
{"compound": "CC(=NNC(=O)c1snnc1C(F)(F)F)c1ccc([N+](=O)[O-])cc1", "strain or isolate": "MTCC 227", "method": "agar diffusion / agar", "dose": "100 µg/mL", "value": "0 mm"}
{"compound": "O=C1C(Cl)C(c2ccc([N+](=O)[O-])cc2)N1Nc1nc2ccccc2n2nnnc12", "strain or isolate": "ATCC 2091", "method": "agar diffusion", "dose": "100 µg/mL", "value": "13 mm"}
{"compound": "CS(=O)(=O)c1nc(N)c(C#N)c(-c2ccccc2Cl)n1", "strain or isolate": "MTCC 227", "method": "agar diffusion", "dose": "100 µg/mL", "value": "20 mm"}
{"compound": "C#Cc1c(-c2ccc(Cl)cc2)c(C#N)c2nc(=O)c3c(-c4ccc(Cl)cc4)csc3n2c1N", "method": "agar diffusion / agar", "dose": "1000 µg/mL", "value": "0 mm"}
{"compound": "CSC1=NC(/C=C/c2ccccc2)C(C#N)=C(N)N1", "strain or isolate": "MTCC 227", "method": "agar diffusion", "dose": "25 µg/mL", "value": "17 mm"}
{"compound": "CCOC(=O)N1CCN(Cn2nc(C34CC5CC(CC(C5)C3)C4)n(/N=C/c3c(F)cccc3F)c2=S)CC1", "strain or isolate": "IFO 3007", "method": "agar diffusion", "dose": "200 µg/disc", "value": "<10 mm"}
{"compound": "CSC1=NC(c2ccccc2Cl)C(C#N)=C(N)N1", "strain or isolate": "MTCC 227", "method": "agar diffusion", "dose": "100 µg/mL", "value": "20 mm"}
{"compound": "NC(=S)c1ccc(OC(=O)CN2CCCCC2)cc1", "strain or isolate": "ATCC 10231", "method": "agar diffusion / agar", "dose": "100 µg/mL", "value": "22 mm"}
{"compound": "O=C1CSC(c2ccc(Cl)cc2)N1Nc1nc2ccccc2n2nnnc12", "strain or isolate": "ATCC 2091", "method": "agar diffusion", "dose": "100 µg/mL", "value": "12 mm"}
{"compound": "C[C@@H]1[C@@H](COCC(=O)O)C[C@@H](O[C@H]2[C@H](O)[C@@H](N(Cc3ccc(O)cc3)CC(O)C[N+](C)(C)C)[C@H](O[C@H]3[C@H](O)[C@@H](N(Cc4ccc(O)cc4)CC(O)C[N+](C)(C)C)[C@H](C)O[C@@H]3COCC(=O)O)O[C@@H]2COCC(=O)O)[C@H](N(Cc2ccc(O)cc2)CC(O)C[N+](C)(C)C)[C@H]1O", "strain or isolate": "RCMB 05031", "method": "agar diffusion", "dose": "1 mg/mL", "value": "14.5 mm"}
{"compound": "O=C(NN=Cc1ccc(O)cc1)c1snnc1C(F)(F)F", "strain or isolate": "MTCC 227", "method": "agar diffusion / agar", "dose": "100 µg/mL", "value": "0 mm"}
{"compound": "COc1ccc(-c2nc(S(C)(=O)=O)nc(N)c2C#N)cc1", "strain or isolate": "MTCC 227", "method": "agar diffusion", "dose": "50 µg/mL", "value": "18 mm"}
{"compound": "O=[N+]([O-])c1ccc(-c2nnc(CN3CCC(n4nc5ccccc5n4)CC3)o2)cc1Cl", "dose": "300 µg/mL", "value": "2.87 mm"}
{"compound": "CC1(C)CC(=O)c2cc(C3CC(c4ccc(Cl)cc4)=NN3C(N)=S)[nH]c2C1", "strain or isolate": "ATCC 2091", "dose": "1000 µg/mL", "value": "25 mm"}
{"compound": "O=[N+]([O-])c1ccccc1/C=N/n1c(C23CC4CC(CC(C4)C2)C3)n[nH]c1=S", "strain or isolate": "IFO 3007", "method": "agar diffusion", "dose": "200 µg/disc", "value": "<10 mm"}
{"compound": "C(=N\\Nc1nnc2c(n1)Nc1ccccc1C2)/c1ccccc1", "strain or isolate": "ATCC 2091", "dose": "1000 µg/mL", "value": "24 mm"}
{"compound": "C/C=C/C1=CC2=CC(=O)[C@](C)(OC(=O)c3c(C)cc(O)c(O)c3OC)C(=O)C2=CO1", "strain or isolate": "ATCC 64548", "method": "agar diffusion", "dose": "25 µg/disc", "value": "0 mm"}
{"compound": "O=C1CSC(c2ccccc2[N+](=O)[O-])N1Nc1nc2ccccc2n2nnnc12", "strain or isolate": "ATCC 2091", "method": "agar diffusion", "dose": "100 µg/mL", "value": "9 mm"}
{"compound": "Cc1ccc(CN(CC(O)C[N+](C)(C)C)[C@@H]2[C@@H](O)[C@H](O[C@@H]3O[C@H](COCC(=O)O)[C@@H](O[C@@H]4C[C@H](COCC(=O)O)[C@@H](C)[C@H](O)[C@H]4N(Cc4ccc(C)cc4)CC(O)C[N+](C)(C)C)[C@H](O)[C@H]3N(Cc3ccc(C)cc3)CC(O)C[N+](C)(C)C)[C@@H](COCC(=O)O)O[C@H]2C)cc1", "strain or isolate": "RCMB 05031", "method": "agar diffusion", "dose": "1 mg/mL", "value": "12.3 mm"}
{"compound": "C#Cc1c(-c2ccc(OC)cc2)c(C#N)c2nc(=O)c3c(-c4ccc(Cl)cc4)csc3n2c1N", "method": "agar diffusion / agar", "dose": "1000 µg/mL", "value": "0 mm"}
{"compound": "CS(=O)(=O)c1nc(N)c(C#N)c(-c2cccc([N+](=O)[O-])c2)n1", "strain or isolate": "MTCC 227", "method": "agar diffusion", "dose": "25 µg/mL", "value": "16 mm"}
{"compound": "CC1(C)CC(=O)c2cc(C3=CC(c4ccc(Cl)cc4)=CC3c3nnc4c(n3)Nc3ccccc3N4)[nH]c2C1", "strain or isolate": "ATCC 2091", "dose": "1000 µg/mL", "value": "24 mm"}
{"compound": "CS(=O)(=O)c1nc(N)c(C#N)c(-c2ccccc2O)n1", "strain or isolate": "MTCC 227", "method": "agar diffusion", "dose": "25 µg/mL", "value": "16 mm"}
{"compound": "O=C1C(Cl)C(c2ccccc2Cl)N1Nc1nc2ccccc2n2nnnc12", "strain or isolate": "ATCC 2091", "method": "agar diffusion", "dose": "50 µg/mL", "value": "9 mm"}
{"compound": "COc1ccc(C(=O)/C=C/c2cc3c([nH]2)CC(C)(C)CC3=O)cc1", "strain or isolate": "ATCC 2091", "dose": "1000 µg/mL", "value": "23 mm"}
{"compound": "CSC1=NC(c2ccccc2)C(C#N)=C(N)N1", "strain or isolate": "MTCC 227", "method": "agar diffusion", "dose": "50 µg/mL", "value": "18 mm"}
{"compound": "C#Cc1c(-c2ccc(Cl)cc2)c(C#N)c2nc(=O)c3c(-c4ccccc4)csc3n2c1N", "method": "agar diffusion / agar", "dose": "1000 µg/mL", "value": "0 mm"}
{"compound": "C[C@@H]1[C@@H](COCC(=O)O)C[C@@H](O[C@H]2[C@H](O)[C@@H](N(Cc3ccc(Br)cc3)CC(O)C[N+](C)(C)C)[C@H](O[C@H]3[C@H](O)[C@@H](N(Cc4ccc(Br)cc4)CC(O)C[N+](C)(C)C)[C@H](C)O[C@@H]3COCC(=O)O)O[C@@H]2COCC(=O)O)[C@H](N(Cc2ccc(Br)cc2)CC(O)C[N+](C)(C)C)[C@H]1O", "strain or isolate": "RCMB 05031", "method": "agar diffusion", "dose": "1 mg/mL", "value": "18.2 mm"}
{"compound": "S=c1[nH]nc(C23CC4CC(CC(C4)C2)C3)n1/N=C/c1ccccc1Cl", "strain or isolate": "IFO 3007", "method": "agar diffusion", "dose": "200 µg/disc", "value": "<10 mm"}
{"compound": "CS(=O)(=O)c1nc(N)c(C#N)c(-c2ccccc2)n1", "strain or isolate": "MTCC 227", "method": "agar diffusion", "dose": "50 µg/mL", "value": "18 mm"}
{"compound": "C[C@H]1[C@H](O)[C@@H](C)/C=C/C=C/C=C/C=C/C=C/C=C/C=C/[C@H](O[C@@H]2O[C@H](C)[C@@H](O)[C@H](N)[C@@H]2O)C[C@@H]2O[C@](O)(C[C@@H](O)C[C@@H](O)CC[C@H](O)[C@@H](O)C[C@@H](O)CC(=O)O[C@H]1C)C[C@H](O)[C@H]2C(=O)O", "strain or isolate": "RCMB 05031", "method": "agar diffusion", "dose": "1 mg/mL", "value": "25.4 mm"}
{"compound": "C#Cc1c(-c2ccccc2)c(C#N)c2nc(=O)c3c(-c4ccccc4)csc3n2c1N", "dose": "1000 µg/mL", "value": "2 mm"}
{"compound": "CCN1CCN(Cn2nc(C34CC5CC(CC(C5)C3)C4)n(/N=C/c3c(F)cccc3F)c2=S)CC1", "strain or isolate": "IFO 3007", "method": "agar diffusion", "dose": "200 µg/disc", "value": "<10 mm"}
{"compound": "Brc1ccccc1-c1nnc(CN2CCC(n3nc4ccccc4n3)CC2)o1", "dose": "900 µg/mL", "value": "7.86 mm"}
{"compound": "O=C(Cc1ccc(-c2nc(-c3ccccc3)c(-c3ccccc3)s2)cc1)CN1CCCCC1", "strain or isolate": "ATCC 10231", "method": "agar diffusion / agar", "dose": "100 µg/mL", "value": "20 mm"}
{"compound": "C#Cc1c(-c2ccccc2)c(C#N)c2nc(=O)c3c(-c4ccc(Cl)cc4)csc3n2c1N", "dose": "1000 µg/mL", "value": "0 mm"}
{"compound": "O=S(=O)(NC(=S)Nc1ccccc1)c1ccc(N2N=C(c3ccc(Cl)cc3)CC2c2ccccc2)cc1", "strain or isolate": "ATCC 2091", "dose": "1000 µg/mL", "value": "28 mm"}
{"compound": "CCOC(=O)C1CCN(Cn2nc(C34CC5CC(CC(C5)C3)C4)n(/N=C/c3ccccc3)c2=S)CC1", "strain or isolate": "IFO 3007", "method": "agar diffusion", "dose": "200 µg/disc", "value": "<10 mm"}
{"compound": "CC(=NNC(=O)c1snnc1C(F)(F)F)c1ccccn1", "strain or isolate": "MTCC 227", "method": "agar diffusion / agar", "dose": "150 µg/mL", "value": "0 mm"}
{"compound": "c1ccc(-c2nc(-c3ccc(N4CCCC4)cc3)sc2-c2ccccc2)cc1", "strain or isolate": "ATCC 10231", "method": "agar diffusion / agar", "dose": "100 µg/mL", "value": "23 mm"}
{"compound": "Oc1ccccc1/C=N/n1c(C23CC4CC(CC(C4)C2)C3)n[nH]c1=S", "strain or isolate": "IFO 3007", "method": "agar diffusion", "dose": "200 µg/disc", "value": "<10 mm"}
{"compound": "CS(=O)(=O)C1=NC(c2cccc3cc4ccccc4cc23)C(C#N)=C(N)N1", "strain or isolate": "MTCC 227", "method": "agar diffusion", "dose": "50 µg/mL", "value": "18 mm"}
{"compound": "Cc1c(Br)cccc1-c1nnc(CN2CCC(n3nc4ccccc4n3)CC2)o1", "dose": "1200 µg/mL", "value": "17.85 mm"}
{"compound": "O=C(CNc1ccc(Cl)cc1)COc1ccc(-c2nc(-c3ccccc3)c(-c3ccccc3)s2)cc1", "strain or isolate": "ATCC 10231", "method": "agar diffusion / agar", "dose": "100 µg/mL", "value": "23 mm"}
{"compound": "CC(C)=NNC(=O)c1snnc1C(F)(F)F", "strain or isolate": "MTCC 227", "method": "agar diffusion / agar", "dose": "100 µg/mL", "value": "0 mm"}
{"compound": "COc1cccc(-c2nnc(CN3CCC(n4nc5ccccc5n4)CC3)o2)c1", "dose": "900 µg/mL", "value": "9.86 mm"}
{"compound": "S=c1nc2c(n[nH]1)Nc1ccccc1N2", "strain or isolate": "ATCC 2091", "dose": "1000 µg/mL", "value": "24 mm"}
{"compound": "O=C(NN=Cc1ccccc1)c1snnc1C(F)(F)F", "strain or isolate": "MTCC 227", "method": "agar diffusion / agar", "dose": "100 µg/mL", "value": "10 mm"}

A second listing of 4 rows from above:

NNc1nnc2c(n1)Nc1ccccc1C2 ; strain or isolate: ATCC 2091 ; dose: 1000 µg/mL ; value: 23 mm
CCOC(=O)C1CCN(Cn2nc(C34CC5CC(CC(C5)C3)C4)n(/N=C/c3ccccc3)c2=S)CC1 ; strain or isolate: IFO 3007 ; method: agar diffusion ; dose: 200 µg/disc ; value: <10 mm
C[C@@H]1[C@@H](COCC(=O)O)C[C@@H](O[C@H]2[C@H](O)[C@@H](N(Cc3ccc(O)cc3)CC(O)C[N+](C)(C)C)[C@H](O[C@H]3[C@H](O)[C@@H](N(Cc4ccc(O)cc4)CC(O)C[N+](C)(C)C)[C@H](C)O[C@@H]3COCC(=O)O)O[C@@H]2COCC(=O)O)[C@H](N(Cc2ccc(O)cc2)CC(O)C[N+](C)(C)C)[C@H]1O ; strain or isolate: RCMB 05031 ; method: agar diffusion ; dose: 1 mg/mL ; value: 14.5 mm
O=C(NN=Cc1ccc(O)cc1)c1snnc1C(F)(F)F ; strain or isolate: MTCC 227 ; method: agar diffusion / agar ; dose: 100 µg/mL ; value: 0 mm